Measured values from several laboratories, pooled; numbers as filed in NIAID ChemDB.

Common to all: toxicity to cultured cells; cell line: H9; read-out: CC50

CCn is the concentration with n% toxicity to the cells. Lines come from different laboratories, so protocols vary.

SMILES | result
CC(C)c1ccccc1SC1=C(O)CC(CCc2ccccc2)(c2ccccc2)OC1=O | 76 µM
CC(C)CC(SC1CCCC1)c1c(O)cc(-c2ccccc2)oc1=O | 28 µM
O=C(O[C@@H]1Cc2c(O)cc(O)cc2O[C@@H]1c1cc(=O)c(O)c2c(O)c(O)c(O)cc2c1)c1cc(O)c(O)c(O)c1 | 25 µg/mL
Cc1cc2c(C(C)C)c(O)c(O)c(C=O)c2c(O)c1-c1c(C)cc2c(C(C)C)c(O)c(O)c(C=O)c2c1O | >25 µM
CC1(C)Oc2ccc3c(-c4ccccc4)cc(=S)oc3c2[C@@H](OC(=O)C23CCC(C)(C(=O)O2)C3(C)C)[C@H]1OC(=O)C12CCC(C)(C(=O)O1)C2(C)C | >140 µM
Nc1nc2c(ncn2[C@@H]2C[C@H](COP(=O)(O)O)[C@@H](O)[C@H]2O)c(=O)o1 | >500 µg/mL
CC[C@H](C)[C@@H](C(=O)O)n1sc2ccccc2c1=O | >100 µM
COc1cc(-c2oc3cc(O)cc(O)c3c(=O)c2O)ccc1O | 28.3 µg/mL
CC(C)(C)NC(=O)[C@@H]1C[C@@H]2CCCC[C@@H]2CN1C[C@@H](O)[C@H](Cc1ccccc1)NC(=O)[C@H](CC(N)=O)NC(=O)c1ccc2ccccc2n1 | 20 µg/mL
c1ccc([C@H]2CN3CCSC3=N2)cc1 | >>0.1 µM
CC1(C)Oc2ccc3ccc(=S)oc3c2[C@@H](OC(=O)C23CCC(C)(C(=O)O2)C3(C)C)[C@H]1OC(=O)C12CCC(C)(C(=O)O1)C2(C)C | >156 µM
COc1c(OCc2ccccc2)c(OCc2ccccc2)cc(CO)c1-c1c(CO)cc(OCc2ccccc2)c(OCc2ccccc2)c1OC | >140 µM
O=c1cc(-c2ccc(O)cc2)oc2cc(O)cc(O)c12 | 35 µg/mL
O=Cc1cc(OCc2ccccc2)c(OCc2ccccc2)c(OCc2ccccc2)c1-c1c(C=O)cc(OCc2ccccc2)c(OCc2ccccc2)c1OCc1ccccc1 | 70 µM
Cc1cn([C@H]2C[C@H](N=[N+]=[N-])[C@@H](CO)O2)c(=O)[nH]c1=O | >1000 µM
CC(C)[C@H](NC(=O)N(C)Cc1ccccn1)C(=O)N[C@@H](Cc1ccccc1)[C@H](O)[C@H](O)[C@H](Cc1ccccc1)NC(=O)[C@@H](NC(=O)N(C)Cc1ccccn1)C(C)C | >100 µM
[N-]=[N+]=N[C@H]1C[C@H](n2cc(Br)c(=O)[nH]c2=O)O[C@@H]1CO | 590 µM
Cc1cc(=O)oc2c3c(ccc12)OC(C)(C)[C@H](OC(=O)C12CCC(C)(C(=O)O1)C2(C)C)[C@@H]3OC(=O)C12CCC(C)(C(=O)O1)C2(C)C | >38.9 µM
COc1cc(/C=C/C(=O)Oc2ccc(/C=C/C(=O)NCCc3ccc(O)cc3)cc2OC)ccc1O | >25 µg/mL
CC[C@H](C)[C@H](NC(=O)[C@H](C(C)C)[C@@H](O)[C@H](O)[C@H](CC1CCCCC1)NC(=O)[C@H](Cc1cnc[nH]1)NC(=O)COc1cccc2ccccc12)C(=O)NCc1ccccn1 | >100 µM
C[C@H]1[C@H](O)[C@@H](C)/C=C/C=C/C=C/C=C/C=C/C=C/C=C/[C@H](O[C@@H]2O[C@H](C)[C@@H](O)[C@H](N)[C@@H]2O)C[C@@H]2O[C@](O)(C[C@@H](O)C[C@@H](O)CC[C@H](O)[C@@H](O)C[C@@H](O)CC(=O)O[C@H]1C)C[C@H](O)[C@H]2C(=O)O | >10 µg/mL
COc1cc2c(c3cnccc13)c1ccccc1n2C | 2.7 µg/mL
O=C(/C=C/c1ccc(O)cc1)O[C@@H]1Cc2c(O)cc(O)cc2O[C@@H]1c1cc(O)c(O)c(O)c1 | 35 µg/mL
O=C(O)P(=O)(O)O | >50 µg/mL
CCN1c2ncccc2-c2cnc(C)n2-c2ccc(-c3cn[nH]c3)nc21 | >100 µM
CC1=C2OCC(C)c3c(O)cc(C)c(c32)C(=O)C1=O | >25 µg/mL
CC1(C)Oc2ccc3c(=O)ccoc3c2[C@@H](OC(=O)C23CCC(C)(C(=O)O2)C3(C)C)[C@H]1OC(=O)C12CCC(C)(C(=O)O1)C2(C)C | 14.2 µM
Nc1nc(=O)n([C@@H]2CO[C@H](CO)S2)cc1F | >500 µM
CC(C)=CCOc1c2occc2cc2ccc(=O)oc12 | 35.2 µM
O=c1[nH]cnc2c1ncn2[C@H]1CC[C@@H](CO)O1 | >500 µg/mL
COc1cc2c(c3ccccc3n2C)c2c(Cl)nccc12 | 26 µg/mL
Cc1coc2c3c(ccc2c1=O)OC(C)(C)[C@H](OC(=O)C12CCC(C)(C(=O)O1)C2(C)C)[C@@H]3OC(=O)C12CCC(C)(C(=O)O1)C2(C)C | 14.7 µM
Nc1nc2c(ncn2[C@H]2C[C@H](O)[C@@H](CO)O2)c(=O)o1 | >500 µg/mL
CC(C)(O)CCC(=O)[C@](C)(O)C1[C@H](O)C[C@@]2(C)[C@@H]3CC=C4[C@@H](C[C@H](O)[C@@H](O)C4(C)C)[C@]3(C)C(=O)C[C@]12C | 9.3 µg/mL
O=C(O[C@@H]1Cc2c(cc(O)c(Cc3c(O)cc4c(c3O)C[C@@H](OC(=O)c3cc(O)c(O)c(O)c3)[C@@H](c3cc(O)c(O)c(O)c3)O4)c2O)OC1c1cc(O)c(O)c(O)c1)c1cc(O)c(O)c(O)c1 | 35 µg/mL
Nc1nc2c(ncn2[C@@H]2C[C@H](CO)[C@@H](O)[C@H]2O)c(=O)o1 | >500 µg/mL
COc1c(O)c(Cl)c2c(c1OC)-c1c(c(Cl)c(O)c(OC)c1OC)C[C@H](C)[C@H](C)C2 | 28.5 µM
COc1cc(/C=C/C(=O)Oc2ccc(/C=C\C(=O)NCCc3ccc(O)cc3)cc2OC)ccc1O | >25 µg/mL
Cc1cn([C@H]2C[C@H](N=[N+]=[N-])[C@@H](CO)O2)c(=O)[nH]c1=O | 500 µg/mL
COc1ccc(S(=O)(=O)N(CC(C)C)C[C@@H](O)[C@H](Cc2ccccc2)NC(=O)O[C@H]2CO[C@H]3OCC[C@H]32)cc1 | >0.1 µM
O=C(O[C@@H]1Cc2c(O)cc(O)c([C@H]3c4c(O)cc(O)cc4O[C@H](c4cc(O)c(O)c(O)c4)[C@@H]3O)c2O[C@@H]1c1cc(O)c(O)c(O)c1)c1cc(O)c(O)c(O)c1 | 28 µg/mL
Cc1cc(=O)c2ccc3c(c2o1)[C@@H](OC(=O)C12CCC(C)(C(=O)O1)C2(C)C)[C@@H](OC(=O)C12CCC(C)(C(=O)O1)C2(C)C)C(C)(C)O3 | 27.3 µM
CC1(C)CC[C@]2(C(=O)O)CC[C@]3(C(=O)/C=C/c4ccc(O)c(O)c4)C(=CCC4[C@@]5(C)CC[C@H](O)C(C)(C)C5CC[C@]43C)[C@@H]2C1 | 19.87 µg/mL
CCCC1=[N+](Cc2ccccc2)CCc2cc(OCc3ccccc3)c(OCc3ccccc3)cc21 | 0.197 µg/mL
COc1cc2c(c3ccccc3n2C)c2c(NCCN(C)C)nccc12 | 0.23 µg/mL
CC(C)C1NCCc2cc(O)c(O)cc21 | 22.8 µg/mL
CC1=CCC[C@H]2[C@](C)(Cc3cc(O)ccc3O)[C@@H](C)CC[C@]12C | 1.6 µM
CC(C)=CCOc1c2ccoc2cc2oc(=O)ccc12 | >185.2 µM
CC(C)(O)CCC(=O)[C@](C)(O)C1[C@H](O)C(=O)[C@@]2(C)[C@@H]3CC=C4[C@@H](C[C@H](O)[C@@H](O)C4(C)C)[C@]3(C)C(=O)C[C@]12C | 38 µg/mL
C/C=C(/C)C(=O)O[C@@H]1c2c(ccc3ccc(=O)oc23)OC(C)(C)[C@@H]1OC(C)=O | 20.7 µM
COc1c(O)c(Br)c2c(c1OC)-c1c(c(Br)c(O)c(OC)c1OC)C[C@H](C)[C@H](C)C2 | 24 µM
CCC1(C)Oc2ccc3c(C)cc(=O)oc3c2[C@@H](OC(=O)C23CCC(C)(C(=O)O2)C3(C)C)[C@H]1OC(=O)C12CCC(C)(C(=O)O1)C2(C)C | >38.4 µM
COc1cc2c(c3ccccc3n2C)c2c(NCCN)nccc12 | 0.23 µg/mL
CC(=O)O[C@@H]1[C@H](OC(=O)C23CCC(C)(C(=O)O2)C3(C)C)c2c(ccc3c(=O)cc(C)oc23)OC1(C)C | >50 µM
CC1(C)Oc2ccc3ccc(=O)oc3c2[C@@H](OC(=O)C23CCC(C)(C(=O)O2)C3(C)C)[C@H]1OC(=O)C12CCC(C)(C(=O)O1)C2(C)C | 35 µM
CC1(C)Oc2ccc3ccc(=O)oc3c2[C@@H](OC(=O)C23CCC(C)(C(=O)O2)C3(C)C)[C@H]1OC(=O)C12CCC(C)(C(=O)O1)C2(C)C | >16.1 µM
CCc1c2cc(O)c(O)cc2cc[n+]1C | 2.07 µg/mL
CC1(C)OC1COc1c2ccoc2cc2oc(=O)ccc12 | 139.9 µM
O=c1c(O[C@@H]2O[C@H](CO)[C@@H](O)[C@H](O)[C@H]2O)c(-c2ccc(O)cc2)oc2cc(O)cc(O)c12 | <100 µg/mL
CCCCCCCCCCCCCCCC(=O)Nc1ccn([C@H]2C[C@H](OP(=O)(O)OC[C@H]3O[C@@H](n4cc(C)c(=O)[nH]c4=O)C[C@@H]3N=[N+]=[N-])[C@@H](CO)O2)c(=O)n1 | 20 µM
Nc1nc(N)c2ncn(CCOCP(=O)(O)O)c2n1 | 10.5 µM
Nc1ccn([C@H]2CO[C@@H](CO)S2)c(=O)n1 | >500 µM
CC(=O)OC[C@H]1O[C@@H](OC(C)(C)[C@H]2Cc3cc4ccc(=O)oc4cc3O2)[C@H](OC(C)=O)[C@@H](OC(C)=O)[C@@H]1OC(C)=O | >86.8 µM

Repeating the final 9 entries:

SMILES,result
CC1(C)Oc2ccc3ccc(=O)oc3c2[C@@H](OC(=O)C23CCC(C)(C(=O)O2)C3(C)C)[C@H]1OC(=O)C12CCC(C)(C(=O)O1)C2(C)C,35 µM
CC1(C)Oc2ccc3ccc(=O)oc3c2[C@@H](OC(=O)C23CCC(C)(C(=O)O2)C3(C)C)[C@H]1OC(=O)C12CCC(C)(C(=O)O1)C2(C)C,>16.1 µM
CCc1c2cc(O)c(O)cc2cc[n+]1C,2.07 µg/mL
CC1(C)OC1COc1c2ccoc2cc2oc(=O)ccc12,139.9 µM
O=c1c(O[C@@H]2O[C@H](CO)[C@@H](O)[C@H](O)[C@H]2O)c(-c2ccc(O)cc2)oc2cc(O)cc(O)c12,<100 µg/mL
CCCCCCCCCCCCCCCC(=O)Nc1ccn([C@H]2C[C@H](OP(=O)(O)OC[C@H]3O[C@@H](n4cc(C)c(=O)[nH]c4=O)C[C@@H]3N=[N+]=[N-])[C@@H](CO)O2)c(=O)n1,20 µM
Nc1nc(N)c2ncn(CCOCP(=O)(O)O)c2n1,10.5 µM
Nc1ccn([C@H]2CO[C@@H](CO)S2)c(=O)n1,>500 µM
CC(=O)OC[C@H]1O[C@@H](OC(C)(C)[C@H]2Cc3cc4ccc(=O)oc4cc3O2)[C@H](OC(C)=O)[C@@H](OC(C)=O)[C@@H]1OC(C)=O,>86.8 µM